The target of the assay is full-length spike B.1.617.2 (SARS-CoV-2, UniProt P0DTC2 13-1273). Description: flow cytometry, cell-surface spike.

B1: A19-46.1 (antibody, V domains shown)
VH: QVQLVESGGGVVQPGRSLRLSCAASGFTLSSYGMHWVRQAPGKGLEWVAVISYDGSNKYYVDSVKGRFTISRDNSKNTLYLQMNSLRAEDTAVYYCARGWAYWELLPDYYYGMDVWGQGTTVTVSS
VL: QTVVTQEPSFSVSPGGTVTLTCGLSSGSVSTAYFPSWYQQTPGQAPRTLIYGTNTRSSGVPDRFSGSILGNKAALTITGAQADDESDYYCVLYMGRGIVVFGGGTKLTVL
B1: the “binding, percent of D614G” value is 0%.

For the origin of these results see patent publication US20240117011A1 (US Dept. of Health and Human Services, published 2024).
